HIV-1 NL4-3 point mutations in RT: replication capacity

From the data files of Al-Mawsawi et al. 2014, doi:10.1186/s12977-014-0124-6.

Protein: RT of HIV-1 NL4-3, numbered from its first residue.
Effects on overlapping genes or RNA elements are not listed.

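Seven fragments of pNL4-3 were mutated by error-prone PCR, and each virus pool was passaged in CEM T cells. The RC index is the frequency of a change after passage round 2 divided by its frequency in the plasmid library.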

A higher RC index is a better tolerated change; approximate classes are lethal up to 0.1, attenuated to 0.2, tolerated above. Substitutions are written as wild-type residue, site number, new residue. Since each clone held several changes (about five per kb), neutral changes can read low. Nucleotide positions follow pNL4-3. An index over 1, which the authors read as above wild type, was rare (1.9% of all changes in the genome).

| change | base | replication capacity index |
|---|---|---|
| T7I | C2569T | 0.0621 |
| L12F | A2585T | 0.102 |
| M16V | A2595G | 0.0684 |
| M16I | G2597A | 0.640 |
| I37T | T2659C | 0.0675 |
| I50M | T2699G | 0.155 |
| W88L | G2812T | 0.351 |
| K101R | A2851G | 0.0525 |
| Q102H | G2855T | 0.0794 |
| F124I | T2919A | 0.0189 |
| Y127N | T2928A | 0.0352 |
| T128S | C2932G | 0.0378 |
| A129S | G2934T | 0.0765 |
| Q145L | A2983T | 0.0269 |
| N147I | A2989T | 0.0273 |
| L149H | T2995A | 0.0128 |
| P150T | C2997A | 0.120 |
| W153C | G3008T | 0.0429 |
| G155E | G3013A | 0.351 |
| S156T | T3015A | 0.0314 |
| P157S | C3018T | 0.0857 |
| K166I | A3046T | 0.0349 |
| R172G | A3063G | 0.0373 |
| D186E | T3107A | 0.0702 |
| I202L | A3153T | 0.187 |
| R206G | A3165G | 0.0738 |
| Q207R | A3169G | 0.0865 |
| Q207L | A3169T | 0.0179 |
| L210S | T3178C | 0.0468 |
| G213R | G3186A | 0.287 |
| W229R | T3234C | 0.0463 |
| V241G | T3271G | 0.113 |
| L264S | T3340C | 0.0295 |
| A267T | G3348A | 0.312 |
| I270S | T3358G | 0.0549 |
| E298D | A3443T | 0.00909 |
| I326V | A3525G | 0.0534 |
| T338S | A3561T | 0.0531 |
| P345L | C3583T | 0.208 |
| F346L | T3585C | 0.0932 |
| T351A | A3600G | 0.0587 |
| A360S | G3627T | 0.0905 |
| Q367H | A3650T | 0.0402 |
| T369A | A3654G | 0.0466 |
| P392H | C3724A | 0.0872 |
| I393L | A3726T | 0.0682 |
| E396G | A3736G | 0.0724 |
| T403S | A3756T | 0.0498 |
| L425I | T3822A | 0.0673 |
| Y427F | A3829T | 0.0629 |
| D443N | G3876A | 0.590 |
| Q464R | A3940G | 0.102 |
| P468L | C3952T | 0.0765 |
| I482F | A3993T | 0.0505 |
| L484P | T4000C | 0.0637 |
| D511G | A4081G | 0.0440 |
| E514G | A4090G | 0.0266 |
| K527E | A4128G | 0.0698 |
| E529K | G4134A | 4.16 |
| K530N | A4139T | 0.0465 |
| V531I | G4140A | 0.180 |
| L533V | C4146G | 0.0352 |
| N545K | T4184A | 0.0400 |
| K550I | A4198T | 0.0349 |
| S553T | G4207C | 0.0338 |
| R557S | G4220T | 0.120 |
| V559E | T4225A | 0.0537 |

A selection of 4 entries from above:

{"change": "M16I", "base": "G2597A", "replication capacity index": 0.640}
{"change": "G155E", "base": "G3013A", "replication capacity index": 0.351}
{"change": "P392H", "base": "C3724A", "replication capacity index": 0.0872}
{"change": "L533V", "base": "C4146G", "replication capacity index": 0.0352}